From ChEMBL document CHEMBL3046613 (J Agric Food Chem, 2010)

What was measured:
Tobacco mosaic virus [1] = assay: Antiviral activity against Tobacco mosaic virus (TMV) pre-treated with 100 ug/mL compound for 30 min followed by inoculation on left side of Nicotiana tabacum leaves assessed as virus inactivation effect measured 3 to 4 days post viral infection
Tobacco mosaic virus [2] = assay: Antiviral activity against Tobacco mosaic virus (TMV) inoculated on fresh tobacco leaves followed by dipping into compound solution at 25 ug/mL for 20 min and measured 72 hr post compound treatment by half-leaf method
Tobacco mosaic virus [3] = assay: Antiviral activity against Tobacco mosaic virus (TMV) inoculated on fresh tobacco leaves followed by dipping into compound solution at 5 ug/mL for 20 min and measured 72 hr post compound treatment by half-leaf method
Tobacco mosaic virus [4] = assay: Antiviral activity against Tobacco mosaic virus (TMV) inoculated on fresh tobacco leaves followed by dipping into compound solution at 100 ug/mL for 20 min and measured 72 hr post compound treatment by half-leaf method
Tobacco mosaic virus [5] = assay: Antiviral activity against Tobacco mosaic virus (TMV) inoculated on whole Nicotiana tabacum leaves followed by smearing with 100 ug/mL compound solution on left side of leaves assessed as viral infection curative effect measured 3 to 4 days post viral infection
Tobacco mosaic virus [6] = assay: Antiviral activity against Tobacco mosaic virus (TMV) inoculated on 100 ug/mL compound smeared Nicotiana tabacum leaves assessed as protective effect against viral infection measured 3 to 4 days post viral infection
Tobacco mosaic virus [7] = assay: Antiviral activity against Tobacco mosaic virus (TMV) inoculated on fresh tobacco leaves followed by dipping into compound solution at 50 ug/mL for 20 min and measured 72 hr post compound treatment by half-leaf method
Tobacco mosaic virus [8] = assay: Antiviral activity against Tobacco mosaic virus (TMV) inoculated on fresh tobacco leaves followed by dipping into compound solution for 20 min and measured 72 hr post compound treatment by half-leaf method

| SMILES | Activity (Tobacco mosaic virus [1]) | inhibition (INH) (Tobacco mosaic virus [2]) | inhibition (INH) (Tobacco mosaic virus [3]) | inhibition (INH) (Tobacco mosaic virus [4]) | Activity (Tobacco mosaic virus [5]) | Activity (Tobacco mosaic virus [6]) | inhibition (INH) (Tobacco mosaic virus [7]) | EC50 (Tobacco mosaic virus [8]) |
| --- | --- | --- | --- | --- | --- | --- | --- | --- |
| COc1cc2c3c(c4cc(OC)c(OC)cc4c2cc1OC)CN1CCC[C@@H]1C3 | 62.2% | 5.3% | 0% | 62.1% | 55.2% | 47.7% | 55.2% | – |
| COc1cc2c3c(c4cc(OC)c(OC)cc4c2cc1OC)CN1CCCC1C3.O=C(O)c1ccccc1O (centres undefined) | 60% | 24.3% | 23.7% | 59% | 72.4% | 56.8% | 54.6% | – |
| COc1cc2c3c(c4cc(OC)c(OC)cc4c2cc1OC)CN1CCCC1C3.Cl (centres undefined) | 60.9% | 75.4% | 30.2% | 92.3% | 34.7% | 78.4% | 88.2% | 10 µg/mL |
| COc1cc2c3c(c4cc(OC)c(OC)cc4c2cc1OC)CN1CCCC1C3.O=[N+]([O-])c1cc([N+](=O)[O-])c(O)c([N+](=O)[O-])c1 (centres undefined) | 57.8% | 28.6% | 7.1% | 41.9% | 51.7% | 45.5% | 36.4% | – |
| COc1cc2c3c(c4cc(OC)c(OC)cc4c2cc1OC)CN1CCCC1C3.O=C(O)C(O)C(O)C(=O)O (centres undefined) | 64.4% | 35.7% | 6.7% | 94.4% | 44.8% | 54.6% | 64% | 27.5 µg/mL |
| COc1cc2c3c(c4cc(OC)c(OC)cc4c2cc1OC)CN1CCCC1C3.O=C(O)CCC(=O)O (centres undefined) | 71.1% | 17.1% | 11.1% | 59.3% | 44.8% | 25% | 51.9% | – |
| COc1cc2c3c(c4cc(OC)c(OC)cc4c2cc1OC)CN1CCCC1C3.O=C(O)CC(O)(CC(=O)O)C(=O)O (centres undefined) | 82.6% | 48.9% | – | 91.7% | 39.1% | 50% | 77.8% | 25.7 µg/mL |
| COc1cc2c3c(c4cc(OC)c(OC)cc4c2cc1OC)CN1CCC[C@H]1C3 | 24.4% | 50.6% | 41.7% | 43.7% | 48.3% | 47.7% | 35.2% | – |
| Br.COc1cc2c3c(c4cc(OC)c(OC)cc4c2cc1OC)CN1CCCC1C3 (centres undefined) | 56.5% | 47.4% | 42.6% | 78.6% | 44.4% | 66.7% | 52.2% | 16.5 µg/mL |
| COc1cc2c3c(c4cc(OC)c(OC)cc4c2cc1OC)CN1CCCC1C3.O=C(O)CC(O)C(=O)O (centres undefined) | 80.4% | 65.7% | – | 66.7% | 42.1% | 50% | 61.5% | < 25 µg/mL |
| COc1cc2c3c(c4cc(OC)c(OC)cc4c2cc1OC)CN1CCCC1C3 (centres undefined) | 73.9% | 41.2% | 34% | 57.6% | 43.5% | 63.3% | 42.5% | – |
| CC(O)C(=O)O.COc1cc2c3c(c4cc(OC)c(OC)cc4c2cc1OC)CN1CCCC1C3 (centres undefined) | 91.3% | 62.9% | 32.8% | 96.6% | 38.3% | 37.3% | 87.9% | 10.8 µg/mL |
| COc1cc2c3c(c4cc(OC)c(OC)cc4c2cc1OC)CN1CCCC1C3.I (centres undefined) | 39.1% | 76.8% | 62.1% | 91.6% | 37.8% | 58.8% | 89.9% | < 5 µg/mL |
| COc1cc2c3c(c4cc(OC)c(OC)cc4c2cc1OC)CN1CCCC1C3.O=C(O)c1ccccc1 (centres undefined) | 69.6% | 48% | 44.4% | 93.7% | 44.9% | 76.5% | 70% | 11.2 µg/mL |
